# Test results as given in article PMC8297954 (Frontiers in Microbiology, 2021).
# By UniProt entry, the sequences of proteins in these tests, tags left out.
# UniProt P59637, whole entry, looked up: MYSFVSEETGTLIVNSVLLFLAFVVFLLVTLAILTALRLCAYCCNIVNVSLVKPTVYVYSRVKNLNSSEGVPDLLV
# Read-outs that look alike come from different tables or passages of the source.
# Columns and labels:
# SARS CoV E protein [1] = biological target: T1, SARS CoV E protein (Severe acute respiratory syndrome coronavirus, UniProt P59637); settings: read-out: MTT IC50; inhibition of E-protein induced cytotoxicity, HEK293, 4 days after transfection, corrected for pRK control; means ± SEM
# SARS CoV E protein [2] = biological target: T1, SARS CoV E protein; assay: Whole-cell patch clamp of proton currents in permeant ion-reduced NMDG buffer, pH 5.5; settings: read-out: patch clamp IC50, HEK293, NMDG-HEPES-MES buffer, pH 5.5, holding potential -60 mV
SMILES,IC50 (SARS CoV E protein [1]) [µM],IC50 (SARS CoV E protein [2]) [µM]
"CCCCC[C@H](O)CC(=O)CCc1ccc(O)c(OC)c1 [6-Gingerol, 6-gingerol]",48,–
"O=c1c(O)c(-c2ccc(O)c(O)c2)oc2cc(O)cc(O)c12 [Quercetin, quercetin]",2,–
"O=C(O[C@@H]1Cc2c(O)cc(O)cc2O[C@@H]1c1cc(O)c(O)c(O)c1)c1cc(O)c(O)c(O)c1 [EGCG, epigallocatechin gallate]",2.9,–
"O=c1cc(-c2ccc(O)cc2)oc2cc(O)cc(O)c12 [Apigenin, apigenin]",6.6,–
"N=C(N)NC(=O)c1nc(Cl)c(N2CCCCCC2)nc1N [HMA, 5-(N,N-hexamethylene)amiloride]",2.4,0.00014
"O=c1c(O)c(-c2ccc(O)cc2)oc2cc(O)cc(O)c12 [Kaempferol, kaempferol]",6.1,–
"Oc1ccc(/C=C/c2cc(O)cc(O)c2)cc1 [Resveratrol, resveratrol]",11,–
"COc1ccc(-c2cc(=O)c3c(OC)c(OC)c(OC)c(OC)c3o2)cc1OC [Nobiletin, nobiletin]",55.1,–
"O=C1C[C@@H](c2ccc(O)cc2)Oc2cc(O)cc(O)c21 [Naringenin, naringenin]",51,–
"CC(N)C12CC3CC(CC(C3)C1)C2 (stereo not shown) [Rimantadine, rimantadine, reference compound]",15.9,0.0015
"CCCCCCC[C@H](O)CC(=O)CCc1ccc(O)c(OC)c1 [8-Gingerol, 8-gingerol]",69,–
